Percent effect of library compounds

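Phenotypic screen: M. tuberculosis growth, glucose 7H9 medium, 3 days; the read-out is not stated. Compounds at 500 µM. The record gives no direction; compounds that gave an IC50 in retests scored well above the rest, so higher reads as more growth inhibition. About 18,000 compounds were tested under these conditions; 7.9% (about 1,400) showed 50% or more at least once.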

Results are given as percent effect. The record does not define 0% and 100%; most values in the screen are far below 50% and negative numbers occur (in some assays of this library far below -100). Many other results are left out here, so strong results are more common than in the screen.

{"compound": "NC(=O)c1ccsc1NC(=O)CCN1CCCC1", "effect": 71.65}
{"compound": "NC(=O)NC(=O)CCN1CCCc2c(Br)cccc2C1", "effect": 81.98}
{"compound": "COCCC1(CO)CCCN(Cc2csc(C)n2)C1", "stereo": "stereo not given", "effect": 9.847}
{"compound": "NCc1ccc(Cl)cn1", "effect": 63.47}
{"compound": "COc1ccc(NC(=O)COc2ccccc2F)cn1", "effect": 70.83}
{"compound": "CN(C)C(=O)CN1CCOC(c2ccccc2)C1", "stereo": "stereo not given", "effect": 24.16}
{"compound": "NCCc1noc2ccccc12", "effect": 5.4}
{"compound": "CN(C)c1ccc2c(c1)OCC(=O)N2", "effect": 0.2965}
{"compound": "CCN1CCC(NC(=O)Nc2ccccc2)CC1", "effect": -22.78}
{"compound": "CCOCCNC(=O)Nc1ccncc1C", "effect": 5.325}
{"compound": "COC(=O)[C@H](C)NC(=O)c1noc2c1CCCCC2", "effect": 62.66}
{"compound": "CCS(=O)(=O)NCCNS(=O)(=O)c1ccc(C)cc1Cl", "effect": 51.52}
{"compound": "COc1cc(C(=O)N2CCCC[C@H](N(C)C)C2)ccn1", "effect": 13.63}
{"compound": "CN1C(=O)c2cccn2CC1CN", "stereo": "stereo not given", "effect": 11.34}
{"compound": "CS(=O)(=O)c1cccc(S(=O)(=O)Nc2ccccc2)c1", "effect": 35.13}
{"compound": "CSc1ccc(Cl)c(C(=O)N2CCN(C)CC2)c1", "effect": 30.84}
{"compound": "CN(C)CCNC(=O)Cn1cc(NCC(C)(C)C)cn1", "effect": 6.728}
{"compound": "CCCc1cc(C(=O)NC(C)c2nncn2C)no1", "stereo": "stereo not given", "effect": 5.576}
{"compound": "O=C(NC1COC2(CCNCC2)C1)c1cnccn1", "stereo": "stereo not given", "effect": 2.787}
{"compound": "COc1cccc(SCC(=O)N(C)[C@H]2COC[C@@H]2O)c1", "effect": 12.13}
{"compound": "CCn1cc(S(=O)(=O)N2CCSCC2)cn1", "effect": 33.03}
{"compound": "CC(C)c1nc(CN2CCn3ccnc3C2)no1", "effect": 10.3}
{"compound": "O=C(c1ccncc1F)N1CCOc2ncccc21", "effect": -12.67}
{"compound": "CN(CCCS(=O)(=O)N(C)C)Cc1nc(C2CC2)no1", "effect": 35.34}
{"compound": "CS(=O)(=O)Cc1ccccc1Br", "effect": -4.897}
{"compound": "O=c1ccc(F)cn1Cc1cnn(-c2ccccc2)n1", "effect": -10.91}
{"compound": "c1cn2c(n1)CCCC2", "effect": 4.275}
{"compound": "CC(=O)N(C)c1ccc(S(N)(=O)=O)cc1", "effect": 0.296}
{"compound": "CCS(=O)(=O)NCCOc1ccc2c(c1)OCO2", "effect": 60.4}
{"compound": "CC(=O)c1ccnc(N2CCC(NS(C)(=O)=O)CC2)c1", "effect": -17.52}
{"compound": "CC1CCCN(C(=O)CSCC(N)=O)CC1", "stereo": "stereo not given", "effect": 38.55}
{"compound": "COc1cccc(F)c1N1CCNCC1", "effect": 43.84}
{"compound": "CCNC(=O)CNc1nccc(OC)n1", "effect": 0.8061}
{"compound": "Cc1ccc(CS(=O)(=O)c2ncnn2C)cc1", "effect": 38.28}
{"compound": "O=C1CC(Nc2nc(C3CC3)ns2)CN1C1CC1", "stereo": "stereo not given", "effect": 16.3}
{"compound": "Cc1cccnc1CCNC(=O)Cc1cccnc1", "effect": 14.94}
{"compound": "COCCCNC(=O)NCCOc1cccc(C)c1", "effect": 32.67}
{"compound": "COc1ccc(Cl)cc1C(O)CN", "stereo": "stereo not given", "effect": 20.47}
{"compound": "CCC(=O)NC1CCCc2occc21", "stereo": "stereo not given", "effect": 12.08}
{"compound": "N#CCC(=O)NC1CCN(CC2CCCC2)CC1", "effect": 9.41}
{"compound": "COc1c(C(=O)N2CCOCC2)sc2ccc(F)cc12", "effect": 53.22}
{"compound": "COC(C(=O)Nc1cnccc1CO)c1ccccc1", "stereo": "stereo not given", "effect": 8.346}
{"compound": "CCn1cnnc1CNC(=O)N1CCN(C)CC1C", "stereo": "stereo not given", "effect": -0.774}
{"compound": "CCC(CC)(CC)SCC(=O)N1CCNC(=O)C1", "effect": -8.512}
{"compound": "CS(=O)(=O)Cc1cccc(CN)c1", "effect": 4.366}
{"compound": "CC(=O)N1CCCN(S(=O)(=O)N(C)C(C)C)CC1", "effect": 3.17}
{"compound": "Cc1ncsc1C(=O)NC1CCCCNC1=O", "stereo": "stereo not given", "effect": 63.3}
{"compound": "C[C@H]1C[C@@H](CO)CCN1", "effect": 0.1476}
{"compound": "OCCN(CCO)CCc1ccccc1Cl", "effect": 39.4}
{"compound": "Cc1nc(CSCC(=O)N2CCCC2)cs1", "effect": 33.82}
{"compound": "Cc1cc(=O)[nH]c(CCNC(=O)[C@H]2CC[C@@H](N)C2)n1", "effect": -5.914}
{"compound": "CC1(C)CCCN1C(=O)NCCCF", "effect": 4.603}
{"compound": "CCC(NC(=O)CCn1cncn1)c1nccs1", "stereo": "stereo not given", "effect": -12.48}
{"compound": "N#Cc1ccc(N2CCN(c3ncccn3)CC2)nc1", "effect": -7.1}
{"compound": "CN(C)S(=O)(=O)N1CCCC1c1ccsc1", "stereo": "stereo not given", "effect": 51.95}
{"compound": "O=C(COc1cccc(F)c1)N1CCN(CCO)CC1", "effect": 0.1095}
{"compound": "CNC(=O)c1ccc(NC(=O)N(C)CCOC)cc1", "effect": 2.874}
{"compound": "CC(CNC(=O)NCc1ccncc1)N(C)C1CC1", "stereo": "stereo not given", "effect": 0.7607}
{"compound": "COCC(=O)N(C)C(C)Cc1ccc(OC)cc1", "stereo": "stereo not given", "effect": 7.396}
{"compound": "NCC(=O)N1CCN(c2ccccc2F)CC1", "effect": 10.89}

Repeated from the top, 3 entries:

Compound	effect
NC(=O)c1ccsc1NC(=O)CCN1CCCC1	71.65
NC(=O)NC(=O)CCN1CCCc2c(Br)cccc2C1	81.98
COCCC1(CO)CCCN(Cc2csc(C)n2)C1 (stereo not given)	9.847

Source: ChEMBL document CHEMBL3988442, “University of Dundee, Small-Polar-MMV Screening Library” (2021).